Assay results from publication PMC4207412, “Secondary Structural Preferences of Some Antibacterial Cyclooctapeptides in the Presence of Calcium(II)” (International Journal of Medicinal Chemistry, 2012).

How the values were obtained:
[1] = Isothermal titration calorimetry of Ca2+ binding in 10% acetonitrile in water; details: ITC, 30°C, no DPC, mean of three experiments ± standard error mean; for Change in enthalpy ΔH: one-site model; for Change in Gibbs free energy ΔG: ΔG = −RT ln K b; for Change in entropy ΔS: ΔS = (ΔH − ΔG)/T
Method: (§1) Microcalorimetric titrations of peptides with metal ions were conducted by isothermal titration microcalorimetry (ITC) using a Microcal VP-ITC Instrument (Northampton, MA, USA). Experiments were carried out at 30°C in 10% acetonitrile in water. The peptide concentration was 0.15 or 0.30 mM (1.34 mL sample cell), and the metal ion [Ca(ClO4)2] concentration was varied from 9 to 15 mM in the syringe. Automated titrations were conducted until saturation, up to a Ca^2+/peptide mole ratio of about 12 : 1. Heats of dilution and mixing for each experiment were measured by titrating calcium(II) solution into 10% acetonitrile solution. The effective heat of each peptide and calcium(II) interaction was corrected for dilution and mixing effects by subtracting the enthalpy change derived from the titration of calcium(II) solution into the 10% acetonitrile solution without the peptide. In a similar way, ITC experiments were carried out at 30°C in 10% aqueous acetonitrile containing 10 mM DPC. These heats of bimolecular interactions were obtained by integrating the peak following each injection of calcium(II). The binding isotherms were derived from the raw ITC data following correction for dilution and mixing effects. These isotherms were fitted using the one-site model by a nonlinear least square analysis with Microcal Origin 7.0 software (Microcal Software, Inc., Northampton, MA, USA) to determine the molar enthalpy change for binding, ΔH, and the corresponding binding constant, K b. From these values, the thermodynamic characterization of the interaction at 30°C was determined from the fundamental equations of thermodynamics, ΔG = −RT ln K b and ΔS = (ΔH − ΔG)/T.

[2] = Isothermal titration calorimetry of Ca2+ binding in micellar DPC (10 mM); details: ITC, 30°C, 10% aqueous acetonitrile containing 10 mM micellar DPC, mean of three experiments ± standard error mean; for Change in enthalpy ΔH: one-site model; for Change in Gibbs free energy ΔG: ΔG = −RT ln K b; for Change in entropy ΔS: ΔS = (ΔH − ΔG)/T
Method: as §1
In order to mimic the hydrophobic environment of the bacterial membrane that antimicrobial peptides commonly target, the interactions of these cyclopeptides with calcium(II) were also conducted in the presence of micellar dodecylphosphocholine (DPC). […] However, their association is compensated by an increase in entropy (ΔS values range from ca. 42.7 to 66.5 JK^−1 mol^−1). This entropy/enthalpy compensation could be attributed to a greater degree of dehydration of the hydration spheres around the cyclopeptide molecules and calcium ions following complex formation in the hydrophobic micellar DPC environment. However, there is no significant trend in the enthalpy or entropy changes following calcium(II) binding in the presence of micellar DPC.

SMILES | Change in enthalpy ΔH [1] [kcal/mol] | Change in Gibbs free energy ΔG [1] [kcal/mol] | Change in entropy ΔS [1] [J K^−1 mol^−1] | Change in enthalpy ΔH [2] [kcal/mol] | Change in Gibbs free energy ΔG [2] [kcal/mol] | Change in entropy ΔS [2] [J K^−1 mol^−1]
CC(C)C[C@@H]1NC(=O)[C@@H](CC(C)C)NC(=O)[C@H](CCC(=O)O)NC(=O)[C@@H](CCCCN)NC(=O)[C@H](Cc2c[nH]cn2)NC(=O)[C@@H](CCCCN)NC(=O)[C@H](Cc2c[nH]cn2)NC(=O)[C@@H](CC(C)C)NC1=O [COP 8] (cyclo(E[dL]L[dL]H[dK]H[dK])) | -0.693 ± 0.19 | -5.09 ± 0.096 | 60.7 ± 0.8 | -0.19 ± 0.024 | -5.09 ± 0.0096 | 66.5 ± 0.4
CC(C)C[C@@H]1NC(=O)[C@@H](CC(C)C)NC(=O)[C@H](CCCCN)NC(=O)[C@@H](CCCCN)NC(=O)[C@H](CCCCN)NC(=O)[C@@H](CCCCN)NC(=O)[C@H](CS)NC(=O)[C@@H](CC(C)C)NC1=O [COP 3] (cyclo(C[dK]K[dK]K[dL]L[dL])) | -0.693 ± 0.406 | -5.31 ± 0.311 | 63.6 ± 5.4 | -0.19 ± 0.0096 | -4.9 ± 0.048 | 64.0 ± 0.8
CC(C)C[C@@H]1NC(=O)[C@@H](CC(C)C)NC(=O)[C@H](CCC(=O)O)NC(=O)[C@@H](CCCCN)NC(=O)[C@H](CCCCN)NC(=O)[C@@H](CCCCN)NC(=O)[C@H](CS)NC(=O)[C@@H](CC(C)C)NC1=O [COP 6] (cyclo(C[dK]K[dK]E[dL]L[dL])) | -2.39 ± 1.6 | -5.21 ± 0.19 | 38.5 ± 23.8 | -1.2 ± 0.502 | -5.09 ± 0.096 | 54.4 ± 7.9
CC(C)C[C@@H]1NC(=O)[C@@H](CC(C)C)NC(=O)[C@H](CC(C)C)NC(=O)[C@@H](CCCCN)NC(=O)[C@H](CCCCN)NC(=O)[C@@H](CCCCN)NC(=O)[C@H](CCCCN)NC(=O)[C@@H](Cc2c[nH]c3ccccc23)NC1=O [COP 2] (cyclo(K[dK]K[dK]L[dL]L[dW])) | -0.14 ± 0.0096 | -5 ± 0.19 | 67.8 ± 3.8 |  |  | 
CC(C)C[C@@H]1NC(=O)[C@@H](CC(C)C)NC(=O)[C@H](CCC(=O)O)NC(=O)[C@@H](CCCCN)NC(=O)[C@H](CCCCN)NC(=O)[C@@H](CCCCN)NC(=O)[C@H](CCC(=O)O)NC(=O)[C@@H](CC(C)C)NC1=O [COP 9] (cyclo(E[dK]K[dK]E[dL]L[dL])) | -0.789 ± 0.096 | -5.09 ± 0.19 | 59.4 ± 2.1 | -0.406 ± 0.048 | -5 ± 0.0096 | 63.6 ± 0.4
CC(C)C[C@@H]1NC(=O)[C@@H](CC(C)C)NC(=O)[C@H](CCC(=O)O)NC(=O)[C@@H](CCCCN)NC(=O)[C@H](CCCCN)NC(=O)[C@@H](CCCCN)NC(=O)[C@H](Cc2c[nH]cn2)NC(=O)[C@@H](CC(C)C)NC1=O [COP 5] (cyclo(E[dL]L[dL]H[dK]K[dK])) | -0.598 ± 0.311 | -5.09 ± 0.19 | 62.3 ± 6.3 | -0.502 ± 0.024 | -5.09 ± 0.096 | 63.6 ± 2.1
CC(C)C[C@@H]1NC(=O)[C@@H](CCCCN)NC(=O)[C@H](CCCCN)NC(=O)[C@@H](CCCCN)NC(=O)[C@H](CCCCN)NC(=O)[C@@H](CC(C)C)NC(=O)[C@H](CC(C)C)NC(=O)[C@@H](CC(C)C)NC1=O [COP 1] (cyclo(K[dK]K[dK]L[dL]L[dL])) | -0.12 ± 0.024 | -4.9 ± 0.096 | 65.7 ± 1.7 |  |  | 
CC(C)C[C@@H]1NC(=O)[C@@H](CC(C)C)NC(=O)[C@H](CC(C)C)NC(=O)[C@@H](CC(C)C)NC(=O)[C@H](CCC(=O)O)NC(=O)[C@@H](CCCCN)NC(=O)[C@H](CCCCN)NC(=O)[C@@H](CCCCN)NC1=O [COP 7] (cyclo(E[dL]L[dL]L[dK]K[dK])) | -0.789 ± 0.19 | -5.4 ± 0.096 | 63.6 ± 3.8 | -0.19 ± 0.096 |  | 42.7 ± 7.1

Square brackets hold non-standard residues; d marks the D form. Peptide text beside a SMILES is read from it.
